Test results from the supplement of paper PMC3578754.
Fold change is the IC50 on the isolate divided by the IC50 on a reference virus; 1 = unchanged, higher = more resistant. Changes are given against the subtype B consensus. No active / inactive call. The values were gathered from many studies (numbered anew) with different assays, which the source does not name. Most viruses are clinical isolates; some are laboratory strains or clones with known resistance changes. Isolates with mixed residues are left out; stretches that were not sequenced show no change. Round top values that many isolates share are read here as limits; other very high values and 0.1 may be limits too. The protease changes I3V and N37S, insertions and deletions cannot be read from the source.

Assays:
Assay in all cases: fold change of IC50 against reference virus; higher = more resistant; Cell-culture drug susceptibility tests of virus bearing the protease of each isolate, gathered from many studies.
saquinavir = compound: CC(C)(C)NC(=O)[C@@H]1C[C@@H]2CCCC[C@@H]2CN1C[C@@H](O)[C@H](Cc1ccccc1)NC(=O)[C@H](CC(N)=O)NC(=O)c1ccc2ccccc2n1 [saquinavir]
ritonavir = compound: CC(C)c1nc(CN(C)C(=O)N[C@H](C(=O)N[C@@H](Cc2ccccc2)C[C@H](O)[C@H](Cc2ccccc2)NC(=O)OCc2cncs2)C(C)C)cs1 [ritonavir]
tipranavir = compound: CCC[C@@]1(CCc2ccccc2)CC(O)=C([C@H](CC)c2cccc(NS(=O)(=O)c3ccc(C(F)(F)F)cn3)c2)C(=O)O1 [tipranavir]
atazanavir = compound: COC(=O)N[C@H](C(=O)N[C@@H](Cc1ccccc1)[C@@H](O)CN(Cc1ccc(-c2ccccn2)cc1)NC(=O)[C@@H](NC(=O)OC)C(C)(C)C)C(C)(C)C [atazanavir]
nelfinavir = compound: Cc1c(O)cccc1C(=O)N[C@@H](CSc1ccccc1)[C@H](O)CN1C[C@H]2CCCC[C@H]2C[C@H]1C(=O)NC(C)(C)C [nelfinavir]
lopinavir = compound: Cc1cccc(C)c1OCC(=O)N[C@@H](Cc1ccccc1)[C@@H](O)C[C@H](Cc1ccccc1)NC(=O)[C@H](C(C)C)N1CCCNC1=O [lopinavir]
indinavir = compound: CC(C)(C)NC(=O)[C@@H]1CN(Cc2cccnc2)CCN1C[C@@H](O)C[C@@H](Cc1ccccc1)C(=O)N[C@H]1c2ccccc2C[C@H]1O [indinavir]

Row | Test System | fold change of IC50 against reference virus (saquinavir) | fold change of IC50 against reference virus (ritonavir) | fold change of IC50 against reference virus (tipranavir) | fold change of IC50 against reference virus (atazanavir) | fold change of IC50 against reference virus (nelfinavir) | fold change of IC50 against reference virus (lopinavir) | fold change of IC50 against reference virus (indinavir)
1 | HIV-1 isolate 1261 (protease changes: L10I L19I K20R E34D E35D M36I R41K M46I I47V I54M L63P A71T I84V I85V L90M I93L, study 64) | 62 | 84 | ≥ 800 | 53 | 53 | 76 | –
2 | HIV-1 isolate 694 (protease changes: L10F I13V K20R D30N L33F M36I N37D R41K M46I I54L L63P I64L I66V A71T I72T I84V N88D L90M I93L C95F, study 64) | – | 107 | 0.9 | 178 | – | 78 | –
3 | HIV-1 isolate 918 (protease changes: L10I I13V K20I L33V E35D M36I N37T M46I I54V Q58E I62V L63P A71V T74P V82L L90M I93L, study 64) | 7.4 | 84 | ≥ 800 | 107 | 93 | 36 | –
4 | HIV-1 isolate 1081 (protease changes: L10F I13V K20R D30N V32I L33F M36I N37D M46I I54L L63P I64L I66V A71T I72T I84V N88D L89M L90M I93L C95F, study 64) | – | ≥ 800 | 1 | ≥ 700 | ≥ 600 | 76 | 36
5 | HIV-1 isolate 966 (protease changes: L10F G16A L19I K20R L33F E35D M36L N37D K43T M46L I54V K55R R57K D60E I62V L63P A71V V82A I84V L90M I93L, study 64) | – | ≥ 800 | 24 | 59 | 64 | 127 | 63
6 | HIV-1 isolate 521 (protease changes: L10I K20R L33F E34T E35D M36I N37D K43T M46I G48V I50V I54S R57K I62V L63P A71V I72V V77I V82A I85V I93L, study 64) | – | ≥ 800 | 1.6 | 109 | – | ≥ 500 | ≥ 500
7 | HIV-1 isolate 275 (protease changes: L10I I13V L33F R41K M46L I54V K55R Q58E D60E Q61E L63P A71T I72T G73C V82A I84V L90M, study 64) | – | ≥ 800 | 11 | 72 | 30 | 129 | 42
8 | HIV-1 isolate 401 (protease changes: L38I K43R I62V L63P V77I I93L, study 64) | 0.6 | 0.4 | 0.6 | 0.7 | 1 | 0.3 | –
9 | HIV-1 isolate 765 (protease changes: L10I M46I I62V L63P A71V T74P V77I I84V L90M Q92R I93L, study 64) | 38 | 27 | 1.9 | 18 | 25 | 23 | –
10 | HIV-1 isolate 193 (protease changes: L10I I15V L23I M46L F53L I54V I62V L63V H69R A71V I72K L76V V82A L89M I93L, study 64) | 6.3 | 64 | 0.6 | 2.4 | 17 | 143 | –
11 | HIV-1 isolate 403 (protease changes: L10F V11I T12P I13V I15V L19P K20T V32I L33F E35G M36I I54V I62V L63P K70T A71I G73S P79A I84V L89V L90M, study 64) | – | ≥ 800 | 9.5 | 111 | 51 | ≥ 500 | –
12 | HIV-1 isolate 2 (protease changes: L10I E35D M36I G48V I50V I54V I62V L63A A71V V82T, study 64) | – | 41 | 0.2 | 4.6 | 12 | 65 | 30
13 | HIV-1 isolate 1453 (protease changes: L10I L33F M46I F53L I54L I62V L63P A71V T74P I84V L90M I93L, study 64) | – | ≥ 800 | 5.3 | 100 | 43 | 58 | 11
14 | HIV-1 isolate 1011 (protease changes: L10I K20R E35D M36I K43T I47V G48M F53L I54V I62V L63P I66F A71V V82T I84V Q92R, study 64) | – | ≥ 800 | 16 | 46 | 12 | 58 | 57
15 | HIV-1 isolate 1623 (protease changes: L10I L24I M46L G48V I54V L63P A71V V77I V82A, study 64) | – | ≥ 800 | 0.5 | 161 | 99 | 126 | 90
16 | HIV-1 isolate 1373 (protease changes: L10F I13V L19I K20T V32I E35N M36I M46I G48Q I54L L63P C67E A71V T74S L76V I84V L89V L90M T91S I93L, study 64) | – | ≥ 800 | 0.9 | ≥ 700 | – | ≥ 500 | 182
17 | HIV-1 isolate 673 (protease changes: L10I V32I L33F K43T M46I I54M D60E L63P I64M A71V V82A L89M L90M I93L, study 15) | 3.5 | 69 | 4.4 | 69 | 47 | 33 | –

Row | Test System | fold change of IC50 against reference virus (saquinavir) | fold change of IC50 against reference virus (ritonavir) | fold change of IC50 against reference virus (tipranavir) | fold change of IC50 against reference virus (atazanavir) | fold change of IC50 against reference virus (nelfinavir) | fold change of IC50 against reference virus (lopinavir) | fold change of IC50 against reference virus (indinavir)
18 | HIV-1 isolate 419 (protease changes: L10I K20I E35D M36I K43T G48M I54V L63Q I64V H69R A71V I72V P79Q I84V I85V L90M I93L, study 64) | – | 114 | 2 | 100 | 47 | 43 | 54
19 | HIV-1 isolate 154 (protease changes: L10I I15V L24I M46L I54V L63P A71V V77I V82A I84V, study 64) | 14 | 77 | 1.7 | 7.5 | 9.5 | 18 | –
20 | HIV-1 isolate 436 (protease changes: L10F I15V D30N L33F E35D M36L N37E K43T D60E I62V L63P I84V N88D L90M, study 64) | – | 57 | 3.1 | 99 | ≥ 600 | 30 | 15
21 | HIV-1 isolate 754 (protease changes: T4S L10I K20R E35D M36I G48V I50V I54A I62V L63P H69Q A71V V82T Q92K, study 64) | – | 75 | 0.6 | 17 | 29 | 118 | 97
22 | HIV-1 isolate 1520 (protease changes: L10F I13V K20R D30N L33I E35D M36I M46L I54V R57K L63P A71V V82A N88D L90M I93L, study 64) | – | ≥ 800 | 1.1 | 51 | ≥ 600 | 97 | 57
23 | HIV-1 isolate 71 (protease changes: L10I D30N L33F M46L F53L I54L Q58E L63P A71T G73S V77I N88D, study 64) | 21 | 4.4 | 0.2 | 35 | – | 4.6 | 1.4
24 | HIV-1 isolate 1043 (protease changes: L10I L63P I93L, study 64) | 1 | 1.2 | 1.1 | 1 | – | 1.1 | 1.5
25 | HIV-1 isolate 1162 (protease changes: L10I L33F E35D M36I K43T G48V I54T L63P H69R A71I V82A I84V I93L, study 64) | – | ≥ 800 | 4.2 | ≥ 700 | 62 | 106 | ≥ 500
26 | HIV-1 isolate 750 (protease changes: L10I K14R V32I R41K G48M F53L I54M I62V L63A C67D H69R A71L I72V V77I V82A I84V L90M I93L, study 64) | – | ≥ 800 | 1.3 | 55 | 19 | 39 | 61
27 | HIV-1 isolate 1183 (protease changes: L10F L33F E35D M36I I54L I62V L63P A71V G73S I84V L90M, study 64) | – | 102 | 2.1 | 159 | 66 | 55 | –
28 | HIV-1 isolate 77 (protease changes: L10I L33F M46L I54V L63P A71V G73S V77I I84V L90M I93L, study 64) | 55 | 66 | 3.5 | 47 | 36 | 27 | –
29 | HIV-1 isolate 1378 (protease changes: L10I K20R E35D M36I N37D M46L G48V I54V D60E I62V L63P A71V I72V V77I V82S L90M I93L, study 64) | – | ≥ 800 | 4.8 | ≥ 700 | ≥ 600 | ≥ 500 | ≥ 500
30 | HIV-1 isolate 1476 (protease changes: L10I K20R L33I M36I I54V Q58E D60E L63P A71V V82L I84V L90M I93L, study 64) | – | ≥ 800 | ≥ 800 | 324 | 118 | 101 | 134
31 | HIV-1 isolate 980 (protease changes: L10I V11L I13V K14R A22V E35D M36I N37D G48M F53L I54V I62V L63P A71V T74S V82A I84V T91S Q92K, study 64) | – | ≥ 800 | 2 | ≥ 700 | – | 130 | 76
32 | HIV-1 isolate 859 (protease changes: L10I I13V I15V L19V L24I V32I L33F K43E M46L I54L D60E L63P A71V I72V V82A I84V, study 64) | 7.7 | ≥ 800 | 2.5 | 86 | 37 | 49 | –
33 | HIV-1 isolate 1014 (protease changes: K14R L19I E35D N37D D60E I62V L63P V77I I93L, study 64) | – | 0.9 | 0.8 | 1 | – | 0.6 | 1
